Compound potency records, mixed from different reports. Data source: NIAID ChemDB in PubChem.

All rows: growth or infection tests; agent: Mycobacterium avium complex; endpoint: MIC

Neighbouring rows are from separate reports. An empty or dashed field is not shown.

{"structure": "O=C(O)c1cn(C2CC2)c2c(F)c(N3CCC(n4ccnc4)C3)c(F)cc2c1=O", "strain": "1760694", "value": "16 µg/mL"}
{"structure": "CN[C@@H]1[C@H](O[C@H]2[C@H](O[C@H]3[C@H](O)[C@@H](O)[C@H](N=C(N)N)[C@@H](O)[C@@H]3N=C(N)N)O[C@@H](C)[C@]2(O)C=O)O[C@@H](CO)[C@H](O)[C@H]1O", "strain": "Isolate C-31", "value": ">400 µg/mL"}
{"structure": "NC[C@@H]1O[C@H](O[C@H]2[C@@H](O)[C@H](O[C@@H]3[C@@H](O)[C@H](N)C[C@H](N)[C@H]3O[C@H]3O[C@H](CO)[C@@H](O)[C@H](O)[C@H]3N)O[C@@H]2CO)[C@H](N)[C@@H](O)[C@@H]1O", "strain": "5718", "value": "<1.56 µg/mL"}
{"structure": "CC[C@H]1OC(=O)[C@H](C)[C@@H](O[C@H]2C[C@@](C)(OC)[C@@H](O)[C@H](C)O2)[C@H](C)[C@@H](O[C@@H]2O[C@H](C)C[C@H](N(C)C)[C@H]2O)[C@](C)(OC)C[C@@H](C)C(=O)[C@H](C)[C@@H](O)[C@]1(C)O", "strain": "1056", "value": "2 µg/mL"}
{"structure": "O=C(O)c1cn(C2CC2)c2c(F)c(N3CCS(=O)CC3)c(F)cc2c1=O", "strain": "1172733", "value": "1 µg/mL"}
{"structure": "CC(C)N=c1cc2n(-c3ccc(Cl)cc3)c3ccccc3nc-2cc1Nc1ccc(Cl)cc1", "strain": "551/HIV+", "value": "0.25 µg/mL"}
{"structure": "CC[C@@H](CO)NCCN[C@@H](CC)CO", "strain": "3350-4", "value": "3.8 µg/mL"}
{"structure": "NCC[C@H](O)C(=O)N[C@@H]1C[C@H](N)[C@@H](O[C@H]2O[C@H](CN)[C@@H](O)[C@H](O)[C@H]2O)[C@H](O)[C@H]1O[C@H]1O[C@H](CO)[C@@H](O)[C@H](N)[C@H]1O", "strain": "CH-1/HIV+", "value": "5 µg/mL"}
{"structure": "NCC[C@H](O)C(=O)N[C@@H]1C[C@H](N)[C@@H](O[C@H]2O[C@H](CN)[C@@H](O)[C@H](O)[C@H]2O)[C@H](O)[C@H]1O[C@H]1O[C@H](CO)[C@@H](O)[C@H](N)[C@H]1O", "strain": "3217", "value": "4 µg/mL"}
{"structure": "NC1CCN(c2c(F)cc3c(=O)c(C(=O)O)cn(C4CC4)c3c2F)C1", "strain": "1172733", "value": "16 µg/mL"}
{"structure": "CC1COc2c(N3CCN(C)CC3)c(F)cc3c(=O)c(C(=O)O)cn1c23", "strain": "CIPT 14031001", "value": "5 µg/mL"}
{"structure": "CC[C@@H](CO)NCCN[C@@H](CC)CO", "strain": "N-289 (HIV-)", "value": "8 µg/mL"}
{"structure": "NC[C@H]1O[C@H](O[C@H]2[C@H](O)[C@@H](O[C@H]3O[C@H](CO)[C@@H](O)[C@H](N)[C@H]3O)[C@H](N)C[C@@H]2N)[C@H](N)[C@@H](O)[C@@H]1O", "strain": "Isolate 53", "value": "6.25 µg/mL"}
{"structure": "CN[C@@H]1[C@H](O[C@H]2[C@H](O[C@H]3[C@H](O)[C@@H](O)[C@H](N=C(N)N)[C@@H](O)[C@@H]3N=C(N)N)O[C@@H](C)[C@]2(O)C=O)O[C@@H](CO)[C@H](O)[C@H]1O", "strain": "13011 (serotype 16)", "value": "12.5 µg/mL"}
{"structure": "CCn1cc(C(=O)O)c(=O)c2cc(F)c(N3CCN(C)CC3)cc21", "strain": "CIPT 140310023", "value": "20 µg/mL"}
{"structure": "NCCC(O)C(N)CC(=O)NC1CNC(=O)C(C2CCN=C(N)N2)NC(=O)/C(=C/NC(N)=O)NC(=O)C(CO)NC(=O)C(CO)NC1=O", "strain": "TMC 1467", "value": "0.02 µg/mL"}
{"structure": "CO[C@H]1/C=C/O[C@@]2(C)Oc3c(C)c(O)c4c(O)c(c(/C=N/N5CCN(C)CC5)c(O)c4c3C2=O)NC(=O)/C(C)=C\\C=C\\[C@H](C)[C@H](O)[C@@H](C)[C@@H](O)[C@@H](C)[C@H](OC(C)=O)[C@@H]1C", "strain": "1110/HIV-", "value": "<2 µg/mL"}
{"structure": "CN[C@@H]1[C@@H](O)[C@@H](O[C@@H]2[C@@H](O)[C@H](O[C@H]3O[C@H](CN)CC[C@H]3N)[C@@H](N)C[C@H]2N)OC[C@]1(C)O", "strain": "Isolate 122", "value": "12.5 µg/mL"}
{"structure": "O=C(O)c1cn(C2CC2)c2c(F)c(N3CCNCC3)c(F)cc2c1=O", "strain": "PI12/39", "value": "1 µg/mL"}
{"structure": "CO[C@H]1/C=C/O[C@@]2(C)Oc3c(C)c(O)c4c(O)c(c(/C=N/N5CCN(C/C=C/c6ccccc6)CC5)c(O)c4c3C2=O)NC(=O)/C(C)=C\\C=C\\[C@H](C)[C@H](O)[C@@H](C)[C@@H](O)[C@@H](C)[C@H](OC(C)=O)[C@@H]1C", "strain": "SK-18", "value": "0.06 µg/mL"}
{"structure": "NCC[C@H](O)C(=O)N[C@@H]1C[C@H](N)[C@@H](O[C@H]2O[C@H](CN)[C@@H](O)[C@H](O)[C@H]2O)[C@H](O)[C@H]1O[C@H]1O[C@H](CO)[C@@H](O)[C@H](N)[C@H]1O", "strain": "1129", "value": "10 µg/mL"}
{"structure": "CC[C@H]1OC(=O)[C@H](C)[C@@H](O[C@H]2C[C@@](C)(OC)[C@@H](O)[C@H](C)O2)[C@H](C)[C@@H](O[C@@H]2O[C@H](C)C[C@H](N(C)C)[C@H]2O)[C@](C)(O)C[C@@H](C)C(=O)[C@H](C)[C@@H](O)[C@]1(C)O", "strain": "3216", "value": "32 µg/mL"}
{"structure": "NC[C@H]1O[C@H](O[C@H]2[C@H](O)[C@@H](O[C@H]3O[C@H](CO)[C@@H](O)[C@H](N)[C@H]3O)[C@H](N)C[C@@H]2N)[C@H](O)[C@@H](O)[C@@H]1O", "strain": "N-259 (HIV-)", "value": "8 µg/mL"}
{"structure": "COC1CCN(c2c(F)cc3c(=O)c(C(=O)O)cn(C4CC4)c3c2F)C1", "strain": "PI12/39", "value": "1 µg/mL"}
{"structure": "NNC(=O)c1ccncc1", "strain": "13034 (serotype 18)", "value": "0.8 µg/mL"}
{"structure": "CO[C@H]1/C=C/O[C@@]2(C)Oc3c(C)c(O)c4c(O)c(c(/C=N/N5CCN(C)CC5)c(O)c4c3C2=O)NC(=O)/C(C)=C\\C=C\\[C@H](C)[C@H](O)[C@@H](C)[C@@H](O)[C@@H](C)[C@H](OC(C)=O)[C@@H]1C", "strain": "3216", "value": "2 µg/mL"}
{"structure": "CC1CN(c2c(F)cc3c(=O)c(C(=O)O)cn(C4CC4)c3c2F)CC(C)N1", "strain": "1988557", "value": "1 µg/mL"}
{"structure": "C[C@@H]1CN(c2c(F)c(N)c3c(=O)c(C(=O)O)cn(C4CC4)c3c2F)C[C@H](C)N1", "strain": "17", "method": "broth dilution", "value": "2 µg/mL"}
{"structure": "NC[C@@H]1O[C@H](O[C@H]2[C@@H](O)[C@H](O[C@@H]3[C@@H](O)[C@H](N)C[C@H](N)[C@H]3O[C@H]3O[C@H](CO)[C@@H](O)[C@H](O)[C@H]3N)O[C@@H]2CO)[C@H](N)[C@@H](O)[C@@H]1O", "strain": "Isolate 64", "value": "3.13 µg/mL"}

For reference, 2 entries again:

structure,strain,method,value
CO[C@H]1/C=C/O[C@@]2(C)Oc3c(C)c(O)c4c(O)c(c(/C=N/N5CCN(C)CC5)c(O)c4c3C2=O)NC(=O)/C(C)=C\C=C\[C@H](C)[C@H](O)[C@@H](C)[C@@H](O)[C@@H](C)[C@H](OC(C)=O)[C@@H]1C,1110/HIV-,,<2 µg/mL
CC[C@@H](CO)NCCN[C@@H](CC)CO,3350-4,,3.8 µg/mL